Anti-infective test results gathered from many reports (values: NIAID ChemDB through PubChem).

Shared fields: tests in culture; organism: Mycobacterium avium complex

Neighbouring rows are from separate reports.

structure	strain or isolate	read by	read-out	dose	value
CCCO/N=C1\[C@H](C)CC(C)(O)[C@H](O[C@@H]2O[C@H](C)C[C@H](N(C)C)[C@H]2O)[C@@H](C)[C@H](O[C@H]2C[C@@](C)(OC)[C@@H](OC(C)=O)[C@H](C)O2)[C@@H](C)C(=O)O[C@H](CC)[C@@](C)(O)[C@H](O)[C@H]1C	20096 (clarithromycin-resistant)		MIC		>50 µg/mL
CCN=c1cc2n(-c3ccc(Cl)cc3)c3ccccc3nc-2cc1Nc1ccc(Cl)cc1	1625		MBC		2 µg/mL
CC(C)N=C(N)/N=C(\N)NOCCCOc1cc(Cl)c(Cl)cc1Cl	FAR		MIC		16 µg/mL
CC[C@H]1OC(=O)[C@H](C)[C@@H](O[C@H]2C[C@@](C)(OC)[C@@H](OC(C)=O)[C@H](C)O2)[C@H](C)[C@@H](O[C@@H]2O[C@H](C)C[C@H](N(C)C)[C@H]2O)C(C)(O)C[C@@H](C)/C(=N\OCc2ccccc2)[C@H](C)[C@@H](O)[C@]1(C)O	20039 (clarithromycin-susceptible)		MIC		3.13 µg/mL
CCc1cc(C(N)=S)ccn1	56 strains	broth dilution	inhibition	5 µg/mL	63%
CC[C@H]1OC(=O)[C@H](C)[C@@H](O[C@H]2C[C@@](C)(OC)[C@@H](O)[C@H](C)O2)[C@H](C)[C@@H](O[C@@H]2O[C@H](C)C[C@H](N(C)C)[C@H]2O)[C@](C)(OC)C[C@@H](C)C(=O)[C@H](C)[C@@H](O)[C@]1(C)O	N-319 (HIV-)		MIC		4 µg/mL
CCc1nc(N)nc(N)c1-c1ccc(Cl)cc1	DW20		MIC		32 µg/mL
CC[C@H]1OC(=O)[C@H](C)[C@@H](O[C@H]2C[C@@](C)(OC)[C@@H](OC(C)=O)[C@H](C)O2)[C@H](C)[C@@H](O[C@@H]2O[C@H](C)C[C@H](N(C)C)[C@H]2OC(=O)NNCc2ccccc2OC)C(C)(O)C[C@@H](C)/C(=N\OCCCC2CCCCC2)[C@H](C)[C@@H](O)[C@]1(C)O	20092 (clarithromycin-resistant)		MIC		0.39 µg/mL
CC(C)N=c1cc2n(-c3ccc(Cl)cc3)c3ccccc3nc-2cc1Nc1ccc(Cl)cc1	715		MBC		64 µg/mL
CO[C@H]1/C=C/O[C@@]2(C)Oc3c(C)c(O)c4c(=O)c(c5oc6cc(N7CCN(CC(C)C)CC7)cc(=O)c6nc5c4c3=C2O)NC(=O)/C(C)=C\C=C\[C@H](C)[C@H](O)[C@@H](C)[C@@H](O)[C@@H](C)[C@H](OC(C)=O)[C@@H]1C	N-980 (HIV+)		MIC		0.05 µg/mL
CC1(C)N=C(N)N=C(N)N1OCCCOc1cc(Cl)c(Cl)cc1Cl	OFOO7A		MIC		8 µg/mL
CCCNNC(=O)O[C@H]1[C@H](O[C@@H]2[C@@H](C)[C@H](O[C@H]3C[C@@](C)(OC)[C@@H](OC(C)=O)[C@H](C)O3)[C@@H](C)C(=O)O[C@H](CC)[C@@](C)(O)[C@H](O)[C@@H](C)/C(=N/OCCCC3CCCCC3)[C@H](C)CC2(C)O)O[C@H](C)C[C@@H]1N(C)C	20092 (clarithromycin-resistant)		MIC		0.78 µg/mL
C[C@@H]1CN(c2c(F)c(N)c3c(=O)c(C(=O)O)cn(C4CC4)c3c2F)C[C@H](C)N1	Isolate 90-1295		MBC		2 µg/mL
CO[C@H]1/C=C/O[C@@]2(C)Oc3c(C)c(O)c4c(O)c(c5c(c4c3C2=O)NC2(CCN(CC(C)C)CC2)N=5)=NC(=O)/C(C)=C\C=C\[C@H](C)[C@H](O)[C@@H](C)[C@@H](O)[C@@H](C)[C@H](OC(C)=O)[C@@H]1C	N-979 (HIV+)		MIC		0.125 µg/mL
CCCCCCCCC(=O)O[C@H]1[C@H](C)[C@@H](O[C@@H]2O[C@H](C)C[C@H](N(C)C)[C@H]2O)C(C)(O)C[C@@H](C)/C(=N\OCCCOc2ccccc2)[C@H](C)[C@@H](O)[C@](C)(O)[C@@H](CC)OC(=O)[C@@H]1C	20092 (clarithromycin-resistant)		MIC		3.13 µg/mL
C[C@@H]1CN(c2c(F)c(N)c3c(=O)c(C(=O)O)cn(C4CC4)c3c2F)C[C@H](C)N1	N-325 (HIV-)		MIC		0.5 µg/mL
N[C@@H]1CONC1=O	14 strains	agar	EC50		<60 µg/mL

A second listing of 2 rows from above:

structure,strain or isolate,read by,read-out,dose,value
CC[C@H]1OC(=O)[C@H](C)[C@@H](O[C@H]2C[C@@](C)(OC)[C@@H](OC(C)=O)[C@H](C)O2)[C@H](C)[C@@H](O[C@@H]2O[C@H](C)C[C@H](N(C)C)[C@H]2O)C(C)(O)C[C@@H](C)/C(=N\OCc2ccccc2)[C@H](C)[C@@H](O)[C@]1(C)O,20039 (clarithromycin-susceptible),,MIC,,3.13 µg/mL
CCCO/N=C1\[C@H](C)CC(C)(O)[C@H](O[C@@H]2O[C@H](C)C[C@H](N(C)C)[C@H]2O)[C@@H](C)[C@H](O[C@H]2C[C@@](C)(OC)[C@@H](OC(C)=O)[C@H](C)O2)[C@@H](C)C(=O)O[C@H](CC)[C@@](C)(O)[C@H](O)[C@H]1C,20096 (clarithromycin-resistant),,MIC,,>50 µg/mL

Blank or dashed fields: not listed here. ECn: concentration that inhibits the pathogen or its effect by n%. Inhibition is in % at the dose shown (toxicity tests: loss of growth or viability).